# Experimental data from ChEMBL document CHEMBL2086264.
# Assay: Ratio of IC50 for PlsY in Staphylococcus aureus RN4220 harboring gpsA mutant to IC50 for Bacillus anthracis PlsY1
smiles,measurement,value
O=C(CCCCCCCc1ccccc1)NS(=O)(=O)Oc1ccccc1,Ratio IC50,2
